{
  "source": "patent US20090297534A1",
  "about": "“Catalytic Immunoglobulins BBK32 and Uses Therefor” (priority 2005, published 2009)",
  "key": {"[1]": {"target": "serum IgA of slow progressor subject 2097, bleed 2", "assay": "cell-based or functional assay"}, "[2]": {"target": "serum IgA of slow progressor subject 2098, bleed 2", "assay": "cell-based or functional assay"}},
  "data": [
    {"binder": "KQIINMWQEVG (modifications not checked)", "note": "[EP-421-433, electrophilic analog of gp120 residues 421-433]", "values": [
      {"measurement": "inhibition of gp120 cleavage by IgA, EP-421-433 at 10 µM", "setting": "[1]", "value": 89, "unit": "% inhibition"},
      {"measurement": "inhibition of gp120 cleavage by IgA, EP-421-433 at 10 µM", "setting": "[2]", "value": 94, "unit": "% inhibition"}
    ]}
  ]
}
